PubChem BioAssay AID504761, Drosophila RNAi Screening Center | 2011

Screen: 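Fly genes whose silencing reduces dengue virus type 2 infection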 (primary screen)
System: D.Mel-2 cells from Drosophila
Reagent: long dsRNA against Drosophila genes
Conditions: infection with dengue virus type 2; dose and infection time not stated
Measured: 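Per well on two replicate plates, imaging gave the percent of cells positive for viral envelope protein, ranked by infection, and a nuclear count of cells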
Direction: infection score: higher = more virus-infected cells; cell count: higher = more cells in the well
Call rule: 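Very low infection ranking in both replicate wells (chance probability at most 0.065), then a retest showing infection dropped 1.5-fold or more at p below 0.05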
Meaning of the calls: active = confirmed: knock-down lowers infection; inactive = not picked or not confirmed
The deposit covers about 22,000 reagents; below is an unselected part of those that have a named target and a result. Of all reagents, 116 (0.52%) got an active call. 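Calls depend on retest data that are not deposited; infection was ranked per plate without normalising between plates; the unit of the infection score is not given.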 Raw values are not corrected between plates. A plus sign joins genes that one reagent is predicted to hit. Not all columns of the deposit are shown. Not given: the amount of reagent, the time to read-out.

target gene	dsRNA	infection score, replicate 1	infection score, replicate 2	cell count, replicate 1	call
CG11106	DRSC19381	1.49	2.06	6632	inactive
RNaseMRP:RNA (Ribonuclease MRP RNA)	DRSC36557	0.88	5.65	6441	inactive
Ubc2 (Ubiquitin conjugating enzyme 2)	DRSC01137	5.39	6.18	6453	inactive
Ubc2 (Ubiquitin conjugating enzyme 2)	DRSC03468	1.1	3.32	6755	inactive
Ubc2 (Ubiquitin conjugating enzyme 2)	DRSC29062	15.6		4971	inactive
Ing5 (Inhibitor of growth family member 5)	DRSC03188	22.6	12.7	6865	inactive
Ing5 (Inhibitor of growth family member 5)	DRSC25216	3.25	9.18	7206	inactive
Cpr76Bc (Cuticular protein 76Bc)	DRSC11062	5.91	5.13	6228	inactive
Cpr76Bc (Cuticular protein 76Bc)	DRSC27478	25.2	5.52	3694	inactive
X11L	DRSC19958	6.11	14.9	6172	inactive
X11L	DRSC19959	7.81	8.46	6645	inactive
X11L	DRSC25616	1.17	7.79	6407	inactive
comm3	DRSC09993	1.73	4.54	5707	inactive
comm3	DRSC09994	0.8	3.62	5496	inactive
comm3	DRSC09995	0.81	1.52	5817	inactive
CG14406	DRSC19592	12.6	17	6391	inactive
Rab30	DRSC03137	5.64	2.15	5889	inactive
Rab30	DRSC23953	2.58	5.46	6463	inactive
CG5808	DRSC14124	6.93	10.1	5298	inactive
CG31126	DRSC14623	8.29	11.6	5684	inactive
Cip4 (Cdc42-interacting protein 4)	DRSC08469	5.88	2.72	6310	inactive
Cip4 (Cdc42-interacting protein 4)	DRSC21740	16.4	12.6	4096	inactive
Tim17a1	DRSC14184	6.92	7.18	6677	inactive
sm (smooth)	DRSC05795	0.69	1.82	6087	inactive
sm (smooth)	DRSC07686	7.48	25.2	1845	inactive

Next part (4 carried over from the part before).
target gene	dsRNA	infection score, replicate 1	infection score, replicate 2	cell count, replicate 1	call
Cip4 (Cdc42-interacting protein 4)	DRSC21740	16.4	12.6	4096	inactive
Tim17a1	DRSC14184	6.92	7.18	6677	inactive
sm (smooth)	DRSC05795	0.69	1.82	6087	inactive
sm (smooth)	DRSC07686	7.48	25.2	1845	inactive
gammaCOP (Coat Protein (coatomer) gamma)	DRSC16955	1.98	0.92	555	inactive
CG31926	DRSC00295	2.5	5.21	6212	inactive
CG31926	DRSC29022	12.8		5659	inactive
SPH93 (Serine protease homolog 93)	DRSC02978	6.44	4.57	6291	inactive
mbf1 (multiprotein bridging factor 1)	DRSC11365	12.5	13.9	6285	inactive
yellow-e3	DRSC15170	1.02	8.35	6684	inactive
CG31533	DRSC13018	5.37	9.87	5732	inactive
CG1965	DRSC12577	5.87	4.58	7121	inactive
CG1965	DRSC21828	9.74	3	2280	inactive
ninaG	DRSC16102	4.21	9.37	6372	inactive
bb8 (big bubble 8)	DRSC15578	4.52	8.65	6017	inactive
CG31029	DRSC15422	5.61	4.01	3511	inactive
CG31029	DRSC29559	25.2		5902	inactive
Fadd (Fas-associated death domain)	DRSC14122	1.35	2.1	7416	inactive
CG31637	DRSC02270	1.46	1.54	5898	inactive
CG31637	DRSC03263	8.88	0.81	5944	inactive
CG31637	DRSC25193	1.64	2.71	6522	inactive
CG1850	DRSC06762	5.34	16.7	6776	inactive
CkIIalpha-i1 (CKII-alpha subunit interactor-1)	DRSC11115	1.37	3.45	5615	inactive
CG11608	DRSC14334	1.06	6.51	6220	inactive
Vago	DRSC19833	4.21	8.69	6630	inactive
Vago	DRSC26320	1.13	0.58	6842	active
CG32801	DRSC17964	3.07	17.6	1172	inactive
CG32801	DRSC25614	6.94	4.37	5709	inactive
BomBc2 (Bomanin Bicipital 2)	DRSC06502		2.91	537	inactive
BomBc2 (Bomanin Bicipital 2)	DRSC29859	35.5	6.34	5959	inactive
CG12581	DRSC12206	10.7	7.5	1815	inactive
CG12581	DRSC12207	9.78	21.9	6445	inactive
Dyrk2 (Dual-specificity tyrosine phosphorylation-regulated kinase 2)	DRSC03610	4.18	11	6173	inactive
Dyrk2 (Dual-specificity tyrosine phosphorylation-regulated kinase 2)	DRSC29029	11.6		4190	inactive
CadN2 + CG42830	DRSC03062	0.97	1.26	5959	inactive
CadN2 + CG42830	DRSC03063	2.76	1.71	5910	inactive
CadN2 + CG42830	DRSC03064	11.4	0.73	4801	inactive
